Test results published in patent publication US20220054630A1.

Target: sE2 wild-type (UniProt P27958)
Test: BLI

## AR3A
  Kd: 1.8 nM
